A mixed list of measured activities; the numbers were collected in NIAID ChemDB.

Common to all: tests in culture; species: HIV-1; cell line: PBMC; read-out: EC50

Rows are shuffled and stem from different studies. ECn is the concentration giving n% inhibition of infection, replication or growth. Two numbers with a dash give a range or band. An empty or dashed field is not shown.

smiles | strain or isolate | changes | read by | setting | result
CC(C)=CCOc1cc(NC(=S)c2ccoc2C)ccc1Cl | 92US657 Clinical isolate |  | p24 |  | 0.00772 µg/mL
O=C(CO)N[C@@H]([C@@H](O)[C@H](O)[C@H](O)CO)[C@@H](O)C(=O)C(=O)O | ROJO |  | RT activity |  | 58 µM
CCCCCCCCC#Cc1cn(C/C=C/C(O)CO)c(=O)[nH]c1=O | LAI |  | RT activity |  | 57.3 µM
CC1=C(C(=O)Nc2ccc(Cl)c(C(=O)OC(C)C)c2)SCCO1 | IIIB |  | cytopathic effect / XTT |  | 0.1 µM
CC(C)(C)NC(=O)[C@H]1N(C(=O)[C@@H](O)[C@H](Cc2ccccc2)NC(=O)[C@H](CC(N)=O)NC(=O)COc2cccc3ccccc23)CSC1(C)C | Clinical isolates |  | p24 |  | 0.13 µM
Cc1cn([C@H]2C[C@H](N=[N+]=[N-])[C@@H](CO)O2)c(=O)[nH]c1=O | RF |  | p24 |  | 0.002 µM
CC(=O)Oc1c(-c2c(C)cc3c(C(C)C)c(O)c(O)c(C#N)c3c2OC(C)=O)c(C)cc2c(C(C)C)c(O)c(O)c(C#N)c12 | LAV |  |  |  | 26.5 µM
NC1=Nc2c(ncn2CCC(/C=C/P(=O)(O)O)CO)C(=O)C1 | RF |  | p24 |  | 3.7 µM
Cc1cn([C@H]2C[C@H](N=[N+]=[N-])[C@@H](CO)O2)c(=O)nc1N | LAV |  | RT activity |  | 0.09 µM
Cn1c(O)c(C2=c3ccccc3=NC2=O)c2ccccc21 | LAV |  |  |  | >100 µM
CN(C[C@@H](CCN1CCC2(CC1)CS(=O)(=O)c1ccccc12)c1cccc(Cl)c1)S(=O)(=O)c1ccccc1 | M-tropic YU-2 |  | p24 / antigen |  | <8 µM
CC[C@H](C)[C@@H](C(=O)O)n1sc2ccccc2c1=O | ROJO |  | p24 / RT activity |  | 7.2 µM
CCc1c(Sc2ccccn2)n(COCc2ccccc2)c(=O)[nH]c1=O | IIIB |  | cytopathic effect / XTT |  | 0.046 µM
Cc1c(O)cccc1C(=O)N[C@@H](CSc1ccccc1)[C@H](O)CN1C[C@H]2CCCC[C@H]2C[C@H]1C(=O)NC(C)(C)C | IIIB |  | p24 |  | 0.0491 µM
Nc1ccn([C@H]2CO[C@@H](CO)S2)c(=O)n1 | HXB2D (RT-M184V) | RT-M184V | p24 |  | 3 µM
O=C(NCc1ccc(F)cc1)c1nc(N2CCCCS2(=O)=O)c2cccnc2c1O | 89.6 |  | p24 |  | <0.009 µM
O=c1[nH]cnc2c1ncn2[C@H]1CC[C@@H](CO)O1 | Isolate 2748 |  | p24 |  | 6.47 µM
C/C=C/CSc1cc(NC(=S)c2ccsc2C)ccc1Cl | WEJO |  | cytopathic effect / XTT |  | 0.5 µM
c1cc(CN2CCCNCCNCCCNCC2)ccc1CN1CCCNCCNCCCNCC1 | IIIB X4 laboratory isolate |  | p24 |  | 0.016 µM
C#C[C@]1(CO)O[C@@H](n2cnc3c(N)nc(F)nc32)C[C@@H]1O | Clinical isolate | A114S/M184V | single cycle / fluorescence |  | 0.0057 µM
CCC[C@@]1(CCc2ccccc2)CC(O)=C([C@H](CC)c2cccc(NS(=O)(=O)c3ccc(C(F)(F)F)cn3)c2)C(=O)O1 | Isolate 301-6X ritonavir-resistant |  | p24 |  | 0.12 µM
Cc1cn([C@H]2C[C@H](N=[N+]=[N-])[C@@H](CO)O2)c(=O)[nH]c1=O | 8564 CLADE D CLADE D |  | p24 |  | 0.015 µM
Cc1cc2c(C(C)C)c(O)c(O)c(C=NCCS(=O)(=O)O)c2c(O)c1-c1c(C)cc2c(C(C)C)c(O)c(O)c(C=NCCS(=O)(=O)O)c2c1O | LAV |  |  |  | 17.3 µM
c1cc(CN2CCCNCCNCCCNCC2)ccc1CN1CCCNCCNCCCNCC1 | 92US714 CLADE B R5 |  | p24 |  | >0.5 µM
Cc1ccnc2c1NC(=O)c1cccnc1N2C1CC1 | D148/88 |  | p24 / ELISA |  | 0.368 µM
O=c1nc2oc(-c3ccccc3)cc2cn1COCCO | LAI |  | RT activity |  | >100 µM
O=c1[nH]cnc2c1ncn2[C@H]1CC[C@@H](CO)O1 | HXB2D |  | p24 |  | 2.8 µM
Cc1ccnc2c1NC(=O)c1cccnc1N2C1CC1 | WEJO |  | cytopathic effect / XTT |  | 0.06 µM
CC(C)=CCN1Cc2cccc3[nH]c(=S)n(c23)C[C@@H]1C | IIIB |  | cytopathic effect / XTT |  | 0.19 µM
Nc1nc(Cl)c2ncn(CCCCCB(O)O)c2n1 | BaL |  | p24 |  | <0.5 µM
CC(C)c1cc2c(c(O)c1O)[C@@]1(C(=O)O)CCCC(C)(C)C1CC2 | clinical isolate 1(MM MDR R5) | PR-L10I K43T M46L I54V L63P A71V V82A L90M Q92K |  |  | >1 µM
CCCCCC#Cc1cn(COCCO)c(=O)[nH]c1=O | LAI |  | RT activity |  | ~100 µM
CCC(c1ccccc1)c1c(O)c2ccccc2oc1=O |  |  |  |  | 100–500 µM
Cc1cccc(C)c1OCC(=O)N[C@@H](Cc1ccccc1)[C@@H](O)C[C@H](Cc1ccccc1)NC(=O)[C@H](C(C)C)N1CCCNC1=O | Clinical isolate | L10I I15V K20R L24I M36I M46L I54V I62V L63P K70Q V82A L89M | p24 / luminescence | clinical isolate, multidrug-resistant | 0.42 µM
CC(=O)c1cn(CC=C(CO)CO)c(=O)[nH]c1=O | LAI |  | RT activity |  | 25.1 µM
Nc1nc(=O)n([C@@H]2CO[C@H](CO)S2)cc1F | HXB2D |  | p24 |  | 3 µM
CC[C@H](C)C(=O)O[C@H]1C[C@@H](C)C=C2C=C[C@H](C)[C@H](CC[C@@H]3C[C@@H](O)CC(=O)O3)[C@H]21 | 92RW009 R5X4 clinical variant |  | p24 |  | <50 µM
CSC[C@H](NC(=O)COc1cccc2cnccc12)C(=O)N[C@@H](Cc1ccccc1)[C@H](O)C(=O)N1CSC(C)(C)[C@H]1C(=O)NC(C)(C)C | AZT-insensitive clinical isolate |  | p24 |  | 0.01 µM
Cc1cc(C)cc([C@]23SCCN2C(=O)c2ccccc23)c1 | D79 |  | p24 / ELISA |  | 0.009 µM
Nc1ccn([C@@H]2CO[C@H](CO)S2)c(=O)n1 | HXB2D (RT-K65R) | RT-K65R | p24 |  | 2.5 µM
Cc1occc1C(=S)Nc1ccc(Cl)c(/C=N/OC(C)(C)C)c1 | WEJO |  | cytopathic effect / XTT |  | 0.2 µM
COC(=O)[C@H](C)NP(=O)(OC[C@H]1O[C@@H](N2C(=O)NC(=O)C(C)(Br)C2OC)C[C@@H]1N=[N+]=[N-])Oc1ccc(Br)cc1 | IIIB |  | RT activity |  | 0.009 µM
Cc1cn([C@H]2C[C@H](N=[N+]=[N-])[C@@H](CO)O2)c(=O)[nH]c1=O | LAI |  | RT activity |  | 0.016 µM
CC(C)CN(C[C@@H](O)[C@H](Cc1ccc(F)cc1)NC(=O)O[C@H]1CCO[C@H]2OCC[C@H]21)S(=O)(=O)c1ccc2nc(NC(C)C)sc2c1 | Clinical isolate | L10I I15V K20R L24I M36I M46L I54V I62V L63P K70Q V82A L89M | p24 / luminescence | clinical isolate, multidrug-resistant | 0.0025 µM
Cc1cc2c(C(C)C)c(O)c(O)c(C=NCCO)c2c(O)c1-c1c(C)cc2c(C(C)C)c(O)c(O)c(C=NCCO)c2c1O | LAV |  |  |  | 6 µM
Cc1cn([C@H]2C[C@H](F)[C@@H](CO)O2)c(=O)[nH]c1=O | GW908 AZT-resistant (RT V75I/F77L/F116Y/Q151M) | RT-V75I F77L F116Y Q151M | antigen |  | 0.0044 µM